The record followed here is publication PMC12405303.

The subject of the data set is AcsS (His-AcsS, LysR-type regulator) (Vibrio parahaemolyticus). As to the kind of experiment: EMSA. The note with it: 0.8-4.8 pmol His-AcsS in 10 uL, 100 ng DNA, dose-dependent shift; 10 mM Tris-HCl pH 7.5, 50 mM NaCl, 1 mM MgCl2, 0.5 mM EDTA, 0.5 mM DTT, 0.625 ug/mL salmon sperm DNA, 100 ng DNA in 10 uL, room temperature 20 min; 6% native PAGE; recombinant protein; residues 1-294; protein details: 6xHis (pET28a); probe letters rebuilt from the primers and the genome. (Mobility shift assays separate free from complexed probe on a gel.)

The exact form of at least one protein or probe is not confirmed.

“GCGCGAATTCAAGCGAACTCCATCTCATAAGAACGAATTAGTCCTTTGTGTTTCATGACCTAGTTTCCCTTCTAGCACGCTACCGCCATTGGGGTGATTGCCCAATAGCCGTGTCGCGAACGTTTTAATTGATGAGCAGAGACATTTCTATGAATGTTTCTGAATTTCTGTAACGCATAAATTCGAAGGTAAGTTTAAAAATTCGTGTTGTTTAGGTAAGTGGAAATAAGAATGAAATTTAGACCTTTGGCTAAGTTTTGCTGTTTAGGAAAAAGCTGGTACTTGCTAAGCAGGGATGAGGAAAAGTATTAAGAAGCGAGTTTGATTATAAAAACTAAGGTTTAATTTCTTGATGGTCTAACGGATGACTTATTTACAGGGAAGGTCGACGCGC (double strand) [cpsA regulatory DNA region]”: the binding result is reported as “binds”.
